Measured values: PMC4929722

Tests used:
[1] = system: GST-BTas-B (bovine foamy virus BFV3026 (clone pBS-BFV-B)); assay: EMSA; conditions: DIG Gel Shift Kit (Roche), 100 ng protein, competitors 20-fold molar excess in pre-incubation, pH and temperature not stated, recombinant protein, protein details: N-terminal GST (pGEX6P-1), label: DIG (printed as digitonin)
[2] = system: GST-BTas-B (bovine foamy virus BFV3026 (clone pBS-BFV-B)); assay: competition with a labelled probe; conditions: 20x unlabeled LTR competitor vs labeled LTR probe; EMSA, DIG Gel Shift Kit (Roche), 100 ng protein; competitors 20-fold molar excess in pre-incubation; pH and temperature not stated; recombinant protein; protein details: N-terminal GST (pGEX6P-1)

## AGAGCTTAAAAATCAAGGTAAC (double strand) [BFV IP TRE probe]
[1]
  binding result: binds

## ATAGCTATTTTAGTAAGTTAGC (double strand) [BFV LTR TRE probe]
[1]
  binding result: binds

## ATAGCTATTTTAGTAAGTTAGC (double strand) [unlabeled BFV LTR TRE competitor]
[2]
  binding result: binds

For at least one entry, the source does not settle the construct or the ends of the probe. For part of these data: At least one verdict rests on a figure or table, not on a statement of the authors.
